Taken from: PubChem BioAssay AID624099 (ICCB-Longwood, 2012)
This is a random part of about 21,000 deposited reagents. 497 of them (2.4%) count as active. 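Higher z means weaker E2 silencing; only reporter increases were scored, and knock-downs that hurt cell survival may mask genuine repressor factors.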 Entries without a mark were called inactive. The numbers tell different reagents against one gene apart.

Test: 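Knock-downs relieving repression by E2 of an HPV18 LCR luciferase reporter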 (primary screen)
Cell system: human C33A cervical carcinoma cells (HPV-negative) stably expressing BPV1 E2 and an HPV18 LCR luciferase reporter
Reagent: siRNA pool against human genes, 40 nM
Time to read-out: 72 h
Measurement: 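HPV18 LCR reporter light per well, converted to plate-wise z-scores that exclude control wells, and averaged over triplicate plates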
Reading the numbers: mean z-score and z-score: higher = stronger reporter signal, weaker E2 silencing
Rule for the call: 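Hit if mean z-score reaches 2 and two or more of three replicate z-scores also reach 2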

| gene knocked down | reagent | mean z-score | z-score, replicate A | z-score, replicate B | z-score, replicate C |
| --- | --- | --- | --- | --- | --- |
| ERGIC2 | 1 | -0.76 | -0.41 | -1.28 | -0.6 |
| SLC5A11 | 1 | -0.47 | -0.41 | -0.59 | -0.41 |
| SENP3 | 1 | -0.08 | 0.07 | -0.2 | -0.1 |
| CAPN3 | 1 | -1.32 | -1.43 | -1.17 | -1.38 |
| DRAM2 | 1 | -1.08 | -1.03 | -0.92 | -1.3 |
| KRTAP4-5 | 1 | 1.44 | 0.98 | 1.82 | 1.52 |
| LXN | 1 | 0.44 | 0.63 | -0.02 | 0.69 |
| CLEC1B | 1 | 1.04 | 1.08 | 1.07 | 0.98 |
| LRRC30 | 1 | 0.07 | -0.39 | 0.14 | 0.47 |
| DHRSX | 1 | -0.34 | -0.82 | 0.13 | 0.2 |
| GTF2A1 | 1 | -1.53 | -1.39 | -1.8 | -1.39 |
| RPS12P23 | 1 | 0.31 | 0.19 | 0.5 | 0.24 |
| ANTXRL | 1 | 0.16 | 0.14 | 0.29 | 0.04 |
| CUL7 | 1 | 1.59 | 1.86 | 1.49 | 1.41 |
| RCN1 | 1 | 0.82 | 0.95 | 0.69 | 0.82 |
| RPS15P9 | 1 | 0.81 | 1.16 | 0.55 | 0.72 |
| HAUS1 | 1 | -0.57 | -0.38 | -0.34 | -1 |
| CMTM5 | 1 | -2.34 | -2.28 | -2.43 | -2.33 |
| GUCA2A | 1 | 1.06 | 1.47 | 1.1 | 0.62 |
| CLDN12 | 1 | 0.17 | 0.1 | 0.1 | 0.3 |
| HADHA | 1 | 0.7 | 0.66 | 0.97 | 0.47 |
| FLJ33534 | 1 | -0.69 | -0.96 | -0.41 | -0.69 |
| ATP5MK | 1 | -0.47 | -0.38 | -0.4 | -0.64 |
| RGL1 | 1 | -0.07 | -0.34 | 0 | 0.13 |
| MCOLN3 | 1 | 1.39 | 1.45 | 1.56 | 1.17 |
| LOC340549 (retired record) | 1 | -0.4 | 0.03 | -0.44 | -0.81 |
| MAGEB1 | 1 | -0.59 | -0.68 | -0.65 | -0.45 |
| CADPS2 | 1 | 1.02 | 1.25 | 0.7 | 1.1 |
| ICAM1 | 1 | -1.11 | -1.27 | -1.1 | -0.96 |
| LINC02003 | 1 | -1.31 | -0.48 | -1.75 | -1.7 |
| OTUD4 | 1 | 2.1 (active) | 2.26 | 2.38 | 1.66 |
| HOXD9 | 1 | -0.39 | -0.28 | -0.11 | -0.77 |
| GSTM2 | 1 | -1.08 | -0.87 | -1.26 | -1.12 |
| CILP | 1 | 0.09 | 0.53 | 0.2 | -0.47 |
| DPP7 | 1 | 0.36 | 0.67 | 0.07 | 0.34 |
| AKAP19 | 1 | 1.34 | 1.5 | 1.16 | 1.37 |
| LOC400551 (retired record) | 1 | -1.46 | -1.67 | -1.34 | -1.38 |
| ZFP64 | 1 | -0.56 | -0.45 | -0.62 | -0.61 |
| GSR | 1 | 1.33 | 2.12 | 1.11 | 0.75 |
| KRT14 | 1 | 1.39 | 1.29 | 1.5 | 1.38 |
| SPATA16 | 1 | 0.66 | 0.6 | 0.53 | 0.86 |
| LOC387762 (retired record) | 1 | -0.21 | 0.16 | -0.35 | -0.44 |
| SOX14 | 1 | 0.32 | 0.3 | 0.36 | 0.29 |
| IFT56 | 1 | -0.37 | -0.06 | -0.28 | -0.78 |
| MAPK8IP1 | 1 | 0.5 | 0.46 | 0.56 | 0.49 |
| CDHR2 | 1 | 0.6 | 0.85 | 0.84 | 0.1 |

Next part, starting with the last 3 of the part before.
| gene knocked down | reagent | mean z-score | z-score, replicate A | z-score, replicate B | z-score, replicate C |
| --- | --- | --- | --- | --- | --- |
| IFT56 | 1 | -0.37 | -0.06 | -0.28 | -0.78 |
| MAPK8IP1 | 1 | 0.5 | 0.46 | 0.56 | 0.49 |
| CDHR2 | 1 | 0.6 | 0.85 | 0.84 | 0.1 |
| CCN1 | 1 | 0.5 | -0.48 | 0.95 | 1.03 |
| KIAA0319L | 1 | -0.35 | -0.19 | -0.28 | -0.59 |
| ZFYVE27 | 1 | -0.12 | -0.18 | 0.1 | -0.28 |
| ASB2 | 1 | -0.76 | -0.77 | -0.67 | -0.84 |
| YIPF6 | 1 | 0.36 | 0.19 | 0.04 | 0.85 |
| POU1F1 | 1 | 1.24 | 0.9 | 1.13 | 1.7 |
| SIPA1 | 1 | -0.72 | -0.87 | -0.37 | -0.91 |
| SCYL3 | 1 | -0.72 | -0.9 | -0.8 | -0.45 |
| KIF27 | 1 | 0.77 | 0.69 | 0.74 | 0.87 |
| ANAPC7 | 1 | 0.84 | 0.86 | 0.91 | 0.76 |
| LOC389166 (retired record) | 1 | 1.59 | 1.36 | 1.83 | 1.59 |
| DNAJC5 | 1 | 0.47 | 0.46 | 0.6 | 0.36 |
| KIAA0408 | 1 | 0.19 | 0.35 | -0.01 | 0.23 |
| LINC02381 | 1 | 0.28 | 0.39 | 0.26 | 0.18 |
| MPP4 | 1 | 0.72 | 0.17 | 0.81 | 1.16 |
| MICAL2 | 1 | -0.14 | -0.24 | -0.17 | -0.02 |
| MICAL2 | 2 | 1.52 | 1.76 | 1.25 | 1.55 |
| LPAR2 | 1 | -0.77 | -1.05 | -0.62 | -0.65 |
| PFDN2 | 1 | -0.34 | -0.23 | -0.34 | -0.46 |
| GAPT | 1 | 0.74 | 0.28 | 1.14 | 0.8 |
| GPR152 | 1 | 1.23 | 1.14 | 1.26 | 1.3 |
| CASP4 | 1 | 1.48 | 1.16 | 2.01 | 1.25 |
| CLHC1 | 1 | -0.07 | 0.31 | -0.32 | -0.21 |
| MARF1 | 1 | -0.34 | -0.2 | -0.46 | -0.35 |
| LRP10 | 1 | 0.37 | 0.41 | 0.31 | 0.38 |
| TACR1 | 1 | -0.24 | -0.08 | -0.77 | 0.14 |
| BDKRB2 | 1 | -0.17 | 0 | -0.1 | -0.4 |
